Compound potency records, mixed from different reports. Data source: NIAID ChemDB in PubChem.

Shared fields: whole-cell or culture tests; species: HIV-2; cell line: CEM + CEM TK-; measure: EC50

An empty or dashed field is not shown. Neighbouring rows are from separate reports. ECn is the concentration giving n% inhibition of infection, replication or growth.

{"structure": "O=c1[nH]c(=O)n([C@H]2C=C[C@@H](CO)O2)cc1Cl", "strain or isolate": "ROD", "method": "syncytia", "value": ">50 µM"}
{"structure": "CCCC(CCC)(NP(=O)(OC[C@@H]1C=C[C@H](n2cc(C)c(=O)[nH]c2=O)O1)Oc1ccccc1)C(=O)OC", "value": ">50 µM"}
{"structure": "COC(=O)CCCNP(=O)(OC[C@@H]1C=C[C@H](n2cc(C)c(=O)[nH]c2=O)O1)Oc1ccccc1", "strain or isolate": "ROD", "method": "cytopathic effect / trypan blue", "value": ">250 µM"}
{"structure": "COC(=O)[C@@H](C)NP(=O)(OC[C@@H]1C=C[C@H](n2cc(C)c(=O)[nH]c2=O)O1)Oc1ccccc1", "strain or isolate": "ROD", "value": "2.5 µM"}
{"structure": "Cc1cn([C@H]2C=C[C@@H](CO)O2)c(=O)[nH]c1=O", "strain or isolate": "ROD", "method": "cytopathic effect / trypan blue", "value": "25 µM"}
{"structure": "CCC(CC)(NP(=O)(OC[C@@H]1C=C[C@H](n2cc(C)c(=O)[nH]c2=O)O1)Oc1ccccc1)C(=O)OC", "value": "50 µM"}
{"structure": "Cc1cn([C@H]2C=C[C@@H](CO)O2)c(=O)[nH]c1=O", "method": "cytopathic effect", "value": "55 µM"}
{"structure": "CC(C)(C)C(=O)OC[C@@H]1C=C[C@H](n2cc(I)c(=O)[nH]c2=O)O1", "strain or isolate": "ROD", "method": "syncytia", "value": ">50 µM"}
{"structure": "COC(=O)CCNP(=O)(OC[C@@H]1C=C[C@H](n2cc(C)c(=O)[nH]c2=O)O1)Oc1ccccc1", "method": "cytopathic effect / microscopy", "value": "7 µM"}
{"structure": "COC(=O)C(C)(C)NP(=O)(OC[C@@H]1C=C[C@H](n2cc(C)c(=O)[nH]c2=O)O1)Oc1ccccc1", "value": "0.6 µM"}
{"structure": "CC(=O)Oc1ccc(COP(=O)(OCc2ccc(OC(C)=O)cc2)OC[C@@H]2C=C[C@H](n3cc(C)c(=O)[nH]c3=O)O2)cc1", "value": "0.13 µM"}
{"structure": "COC(=O)CCCCCNP(=O)(OC[C@@H]1C=C[C@H](n2cc(C)c(=O)[nH]c2=O)O1)Oc1ccccc1", "strain or isolate": "ROD", "method": "cytopathic effect / trypan blue", "value": ">250 µM"}
{"structure": "COC(=O)CC(OP(=O)(OC[C@@H]1C=C[C@H](n2cc(C)c(=O)[nH]c2=O)O1)OC(CC(=O)OC)c1ccc(OC(C)=O)cc1)c1ccc(OC(C)=O)cc1", "value": "0.2 µM"}
{"structure": "Cc1cn([C@H]2C=C[C@@H](CO)O2)c(=O)[nH]c1=O", "strain or isolate": "ROD", "method": "syncytia", "value": "25 µM"}
{"structure": "COC(=O)[C@H](C)NP(=O)(OC[C@@H]1C=C[C@H](n2cc(C)c(=O)[nH]c2=O)O1)Oc1ccc(F)cc1", "strain or isolate": "ROD", "method": "syncytia", "value": "0.09 µM"}

Repeating the first 2 entries:

| structure | strain or isolate | method | value |
|---|---|---|---|
| O=c1[nH]c(=O)n([C@H]2C=C[C@@H](CO)O2)cc1Cl | ROD | syncytia | >50 µM |
| CCCC(CCC)(NP(=O)(OC[C@@H]1C=C[C@H](n2cc(C)c(=O)[nH]c2=O)O1)Oc1ccccc1)C(=O)OC | - | - | >50 µM |